Compound potency records, mixed from different reports. Data source: NIAID ChemDB in PubChem.

Shared fields: host cell toxicity; cell line: Jurkat cells; read-out: CC50

CCn is the concentration with n% toxicity to the cells. Conditions beyond the fields shown may differ between rows. Blank or dashed fields: not listed here.

SMILES	read by	result
Nc1ncn([C@@H]2O[C@H](CO)[C@@H](O)[C@H]2O)c(=O)n1	luminescence	>100 µM
COc1ccc(C=O)cc1O	MTT / absorbance	>100 µM
NC(=O)c1cc2c(-c3ccc4ccccc4c3)cncc2s1	MTT	20.5 µM
Cc1cc(=O)c2ccc(N=C=S)cc2o1	MTT	9.95 µM
CC(C)=CCC[C@]1(C)C=Cc2c(O)c3c(c(CC=C(C)C)c2O1)O[C@@]12C(=C[C@H]4CC1C(C)(C)O[C@]2(C/C=C(/C)C(N)=O)C4=O)C3=O	luminescence	1.3 µM
Nc1ccn([C@H]2CO[C@@H](CO)S2)c(=O)n1		450 µM
COc1cc(/C=C/C(=O)N2CCC=CC2=O)cc(OC)c1OC	luminescence	2 µM
COc1cc2c(c(OC)c1OC)-c1c(cc(OC)c(OC)c1OC)C[C@H](C)[C@H](C)C2	MTT	20 µM
Nc1ccn([C@@H]2CO[C@H](CO)S2)c(=O)n1		11 µM
CCCCCCCCCCCCCCCC(=O)OCC(CO)(CO)NC(=O)CNC(=O)CCCc1ccc(C(CCCl)CCCl)cc1		6.5 µM
CC(C)[C@@H]1NC(=O)[C@H](C)OC(=O)[C@@H](C(C)C)NC(=O)[C@@H](C(C)C)OC(=O)[C@H](C(C)C)NC(=O)[C@H](C)OC(=O)[C@@H](C(C)C)NC(=O)[C@@H](C(C)C)OC(=O)[C@H](C(C)C)NC(=O)[C@H](C)OC(=O)[C@@H](C(C)C)NC(=O)[C@@H](C(C)C)OC1=O	luminescence	0.4 µM
NC(=O)c1cc2c(-c3ccc4c(c3)CCO4)cncc2s1	MTT	19.2 µM
COc1ccc(C=O)c(O)c1	MTT / absorbance	>100 µM
Cc1ccc(-c2cc(C(F)(F)F)nn2-c2ccc(S(N)(=O)=O)cc2)cc1	luminescence	>100 µM
COc1ccc(C(=O)O)c(O)c1	MTT / absorbance	>100 µM
CS(=O)CCCCN=C=S	MTT	9.95 µM
Cc1cc(N)c2ccccc2[n+]1CCCCCCCCCC[n+]1c(C)cc(N)c2ccccc21	luminescence	0.7 µM
Cc1cn([C@H]2C[C@H](N=[N+]=[N-])[C@@H](CO)O2)c(=O)[nH]c1=O		1721 µM

For reference, 2 entries again:

SMILES | read by | result
NC(=O)c1cc2c(-c3ccc4c(c3)CCO4)cncc2s1 | MTT | 19.2 µM
COc1cc2c(c(OC)c1OC)-c1c(cc(OC)c(OC)c1OC)C[C@H](C)[C@H](C)C2 | MTT | 20 µM